Pooled drug test results. Numbers come from NIAID ChemDB, via PubChem.

Common to all: growth or infection tests; agent: HIV-1; read-out: EC50

Blank or dashed fields: not listed here.

[N-]=[N+]=NC[C@H]1O[C@@H](n2cnc3c(N)ncnc32)[C@H](O)[C@@H]1CC(=O)O ; cells: MT-2 ; method: cytopathic effect / neutral red ; strain or isolate: LAI ; result: >62 µM
[2H]C(CO)(CNC(=O)c1ccc(Cl)cc1)NC(=O)C[C@@]12CC[C@]3(C)[C@H](CC[C@@H]4[C@@]5(C)CC[C@H](OC(=O)[C@H]6C[C@@H](C(=O)O)C6(C)C)C(C)(C)[C@@H]5CC[C@]43C)C1=C(C(C)C)C(=O)C2 ; cells: MT-2 ; method: p24 / ELISA ; strain or isolate: 92HT599 ; result: <1 µM
N=C1Sc2ccccc2C2=NCCCN12 ; cells: PBMC ; method: MTS ; strain or isolate: 96USNG31 ; result: 0.14 µM
CCCNc1nc(NCCCNC(=O)c2cccc(C(=O)NCCCNc3nc4c(c(NCCC)n3)CC=CC4)c2)nc2c1CC=CC2 ; cells: H9 ; method: syncytia / ELISA ; strain or isolate: IIIB ; result: 2.5 µM
N=C(N)c1cccc(Oc2ccccc2)c1 ; cells: HUT4-3/SX22-1 ; method: β-galactosidase / cell fusion ; result: >10 µM
CC(C)C1=C2[C@H]3CC[C@@H]4[C@@]5(C)CC[C@H](OC(=O)[C@H]6C[C@@H](C(=O)O)C6(C)C)C(C)(C)[C@@H]5CC[C@@]4(C)[C@]3(C)CC[C@@]2([C@@H](O)CNC(=O)c2cccnc2)CC1=O ; cells: MT-2 ; method: p24 / ELISA ; strain or isolate: 92HT599 ; result: <1 µM
CC(C)CN(C[C@@H](O)[C@H](Cc1ccccc1)NC(=O)O[C@H]1CO[C@H]2OCC[C@H]21)S(=O)(=O)c1ccc(N)c(NCc2ccc(F)cc2F)c1 ; cells: MT-4 ; method: GFP ; strain or isolate: IIIB WT ; result: 0.00363 µM
CNC(=O)NC[C@H]1O[C@@H](n2cnc3c(NC(=O)Nc4ccccc4)ncnc32)[C@H](O[Si](C)(C)C(C)(C)C)[C@@H]1CC(=O)N(C)OC ; cells: MT-2 ; method: cytopathic effect / neutral red ; strain or isolate: LAI ; result: >17 µM
CC(C)C1=C2[C@H]3CC[C@@H]4[C@@]5(C)CC[C@H](OC(=O)[C@H]6C[C@@H](C(=O)O)C6(C)C)C(C)(C)[C@@H]5CC[C@@]4(C)[C@]3(C)CC[C@@]2(CCN[C@H](C)c2ccccc2)CC1=O ; cells: MT-2 ; method: p24 / ELISA ; strain or isolate: 92HT599 ; result: <1 µM
Cc1ccc(COc2cccc(C(=N)N)c2)cc1 ; cells: HUT4-3/SX22-1 ; method: β-galactosidase / cell fusion ; result: >10 µM
CCN(CC)CCNc1nc(NCCCNC(=O)c2cccc(C(=O)NCCCNc3nc4c(c(NCCN(CC)CC)n3)CC=CC4)c2)nc2c1CC=CC2 ; cells: H9 ; method: syncytia / ELISA ; strain or isolate: IIIB ; result: 0.125 µM
CC(C)C1=C2[C@H]3CC[C@@H]4[C@@]5(C)CC[C@H](OC(=O)[C@H]6C[C@@H](C(=O)O)C6(C)C)C(C)(C)[C@@H]5CC[C@@]4(C)[C@]3(C)CC[C@@]2([C@@H](O)CNC(=O)CN2CCOCC2)CC1=O ; cells: MT-2 ; method: p24 / ELISA ; strain or isolate: 92HT599 ; result: <1 µM
Cn1cc(C(=O)O)c(=O)c2cc(F)c(N3CC=C(c4ccccc4)CC3)c(C(F)(F)F)c21 ; cells: CEM ; method: ELISA ; result: 0.11 µM
CC(C)CN(C[C@@H](O)[C@H](Cc1ccccc1)NC(=O)O[C@H]1CO[C@H]2OCC[C@H]21)S(=O)(=O)c1ccc(N)c(NCC2CCCO2)c1 ; cells: MT-4 ; method: GFP ; strain or isolate: IIIB WT ; result: 0.00437 µM
N=C(N)c1cccc(OCc2cccc([N+](=O)[O-])c2)c1 ; cells: HUT4-3/SX22-1 ; method: β-galactosidase / cell fusion ; result: >10 µM
Cc1cc(/C=C/C#N)cc(C)c1-c1cccc2cnc(Nc3ccc(C#N)cn3)cc12 ; cells: MT-4 ; method: cytopathic effect / luminescence ; changes: K103N ; strain or isolate: HXB2 ; result: 0.047 µM
[2H]C(CO)(NC(=O)c1ccc(Cl)cc1)C(=O)NC[C@H](O)[C@@]12CC[C@]3(C)[C@H](CC[C@@H]4[C@@]5(C)CC[C@H](OC(=O)[C@H]6C[C@@H](C(=O)O)C6(C)C)C(C)(C)[C@@H]5CC[C@]43C)C1=C(C(C)C)C(=O)C2 ; cells: MT-2 ; method: p24 / ELISA ; strain or isolate: 92HT599 ; result: <1 µM
NC(N)=Nc1cccc(OCc2ccc(Br)cc2)c1 ; cells: HUT4-3/SX22-1 ; method: β-galactosidase / cell fusion ; result: >10 µM
CC(C)CN(C[C@@H](O)[C@H](Cc1ccccc1)NC(=O)O[C@H]1CO[C@H]2OCC[C@H]21)S(=O)(=O)c1ccc(N)c(NCCc2cnc[nH]2)c1 ; cells: MT-4 ; method: GFP ; strain or isolate: IIIB WT ; result: 0.851 µM
CC(C)C1=C2[C@H]3CC[C@@H]4[C@@]5(C)CC[C@H](OC(=O)[C@H]6C[C@@H](C(=O)O)C6(C)C)C(C)(C)[C@@H]5CC[C@@]4(C)[C@]3(C)CC[C@@]2(CCNCc2ccc(OCCN3CCOCC3)cc2)CC1=O ; cells: MT-2 ; method: p24 / ELISA ; strain or isolate: 92HT599 ; result: <1 µM
Nc1ccn([C@H]2CC[C@@H](CO)O2)c(=O)n1 ; method: β-galactosidase ; changes: N43K ; strain or isolate: NL4-3 ; result: 0.22 µM
CCCc1cc(=O)oc2c3c(c4c(c12)OC(C)(C)CC4)O[C@H](C)[C@@H](C)C3=O ; method: cytopathic effect / XTT ; changes: RT-D67N K70R T215Y K219Q ; strain or isolate: 4xAZT resistant isolate ; result: 2.73 µM
CC(C)CN(C[C@@H](O)[C@H](Cc1ccccc1)NC(=O)O[C@H]1CO[C@H]2OCC[C@H]21)S(=O)(=O)c1ccc(N)c(NCCCn2ccnc2)c1 ; cells: MT-4 ; method: GFP ; strain or isolate: IIIB WT ; result: 0.324 µM
CNC(=O)NC[C@H]1O[C@@H](n2cnc3c(NC(=O)Nc4ccccc4)ncnc32)[C@@H]2OC(=O)C[C@@H]21 ; cells: MT-2 ; method: cytopathic effect / neutral red ; strain or isolate: LAI ; result: >34 µM
N=C(N)c1cccc(OCc2ccc(OCc3ccccc3)cc2)c1 ; cells: HUT4-3/SX22-1 ; method: β-galactosidase / cell fusion ; result: >10 µM
Nc1ccn([C@@H]2CS[C@H](CO)O2)c(=O)n1 ; cells: MAGI ; method: single cycle ; strain or isolate: IIIB ; result: 7.5 µg/mL
CC(C)CN(C[C@@H](O)[C@H](Cc1ccccc1)NC(=O)O[C@H]1CO[C@H]2OCC[C@H]21)S(=O)(=O)c1ccc(N)c(NCCc2ccc3c(c2)OCO3)c1 ; cells: MT-4 ; method: GFP ; strain or isolate: IIIB WT ; result: 0.00372 µM
O=C(NCCCNc1ncccn1)c1cccc(C(=O)NCCCNc2ncccn2)c1 ; cells: H9 ; method: syncytia / ELISA ; strain or isolate: IIIB ; result: >50 µM
CCCCCCCCCCC[C@@]1(O)C[N+](C)(C)C[C@@H](CC(=O)[O-])O1 ; method: virus yield ; strain or isolate: RF ; result: ~320 µg/mL
CC(C)CN(C[C@@H](O)[C@H](Cc1ccccc1)NC(=O)O[C@H]1CO[C@H]2OCC[C@H]21)S(=O)(=O)c1ccc(N)c(NCCO)c1 ; cells: MT-4 ; method: GFP ; strain or isolate: IIIB WT ; result: 0.275 µM
CCCCCCCCCCCCC[C@@]1(O)C[N+](C)(C)C[C@@H](CC(=O)[O-])O1 ; method: virus yield ; strain or isolate: RF ; result: ~32 µg/mL
CC(C)CN(C[C@@H](O)[C@H](Cc1ccccc1)NC(=O)O[C@H]1CO[C@H]2OCC[C@H]21)S(=O)(=O)c1ccc(N)c(NCCN2CCOCC2)c1 ; cells: MT-4 ; method: GFP ; strain or isolate: IIIB WT ; result: 0.0741 µM

4 of the rows above, restated:

SMILES | cells | method | changes | strain or isolate | result
CC(C)CN(C[C@@H](O)[C@H](Cc1ccccc1)NC(=O)O[C@H]1CO[C@H]2OCC[C@H]21)S(=O)(=O)c1ccc(N)c(NCc2ccc(F)cc2F)c1 | MT-4 | GFP |  | IIIB WT | 0.00363 µM
CC(C)CN(C[C@@H](O)[C@H](Cc1ccccc1)NC(=O)O[C@H]1CO[C@H]2OCC[C@H]21)S(=O)(=O)c1ccc(N)c(NCCCn2ccnc2)c1 | MT-4 | GFP |  | IIIB WT | 0.324 µM
O=C(NCCCNc1ncccn1)c1cccc(C(=O)NCCCNc2ncccn2)c1 | H9 | syncytia / ELISA |  | IIIB | >50 µM
Nc1ccn([C@H]2CC[C@@H](CO)O2)c(=O)n1 |  | β-galactosidase | N43K | NL4-3 | 0.22 µM

Rows are shuffled and stem from different studies. ECn: concentration that inhibits the pathogen or its effect by n%.